Km data for one substance are collected here from publication PMC3111433.

Data set [1] concerns Nc1ccn([C@@H]2O[C@H](COP(=O)(O)OP(=O)(O)OP(=O)(O)O)[C@@H](O)[C@H]2O)c(=O)n1. As to the kind of experiment: purified protein. As to conditions: pH 8.0; 37.0 °C.
In data set [2] the test system is C[C@](O)(CO)[C@H](O)COP(=O)(O)O. Kind of data set: purified protein. Particulars: pH 8.0; 37.0 °C.

Broadly, the Km is the concentration of substrate that gives half-maximal velocity.

“F. tularensis MEP cytidylyltransferase (IspD) (Francisella tularensis subsp. holarctica LVS)”: the values for the Km in data set [1] and in data set [2] were 73.0 ± 14.9 µM and 177.9 ± 35.2 µM, respectively.
